According to ChEMBL document CHEMBL6177978, “Toward Dual-Target Glycomimetics against Two Bacterial Lectins to Fight Pseudomonas aeruginosa-Burkholderia cenocepacia Infections: A Biophysical Study” (2025):

Target: Fucose-binding lectin PA-IIL (Pseudomonas aeruginosa (strain ATCC 15692 / DSM 22644 / CIP 104116 / JCM14847 / LMG 12228 / 1C / PRS 101 / PAO1), UniProt Q9HYN5)
Experiment: Binding affinity to Pseudomonas aeruginosa PAO1 LecB expressed in Escherichia coli BL21 (DE3) incubated for 5 hrs by fluorescence polarization assay

SMILES: C[C@@H]1O[C@H](CNC(=O)/C=C/c2ccccc2)[C@@H](O)[C@H](O)[C@@H]1O
- IC50: 300 nM

SMILES: C[C@@H]1O[C@H](CNC(=O)c2ccc(CN)cc2)[C@@H](O)[C@H](O)[C@@H]1O
- IC50: 170 nM

SMILES: C[C@@H]1O[C@H](CNC(=O)c2cccc(CN)c2)[C@@H](O)[C@H](O)[C@@H]1O
- IC50: 280 nM
